Source: PubChem BioAssay AID624099 (ICCB-Longwood, 2012)
Test: 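Human genes that papillomavirus E2 requires to repress the HPV18 LCR promoter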 (primary screen). Cell system: human C33A cervical carcinoma cells (HPV-negative) stably expressing BPV1 E2 and an HPV18 LCR luciferase reporter. Reagent: siRNA pool against human genes, 40 nM. Duration: 72 h. Detection: 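HPV18 LCR reporter light per well, converted to plate-wise z-scores that exclude control wells, and averaged over triplicate plates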. Direction: mean z-score and z-score: higher = stronger reporter signal, weaker E2 silencing. Call rule: 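Mean z ≥ 2 together with z ≥ 2 in two or more of the three replicates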.
In all, the deposit lists about 21,000 reagents; below is a random part of them. Over the whole deposit, 497 (2.4%) are marked active. 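Higher z means weaker E2 silencing; only reporter increases were scored, and knock-downs that hurt cell survival may mask genuine repressor factors.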

| gene knocked down | mean z-score | z-score, replicate A | z-score, replicate B | z-score, replicate C | outcome |
| --- | --- | --- | --- | --- | --- |
| LOC389437 (retired record) | 1.27 | 1.44 | 1.39 | 0.99 | inactive |
| DHODH | -0.06 | 0.07 | 0.07 | -0.31 | inactive |
| USP44 | -1.08 | -0.98 | -1.06 | -1.19 | inactive |
| AGAP12P | 2.63 | 2.3 | 3.02 | 2.58 | active |
| SERPINA10 | -1.16 | -1.25 | -1.09 | -1.15 | inactive |
| LRRIQ3 | 0.36 | 0.33 | 0.13 | 0.61 | inactive |
| CIMIP4 | -0.71 | -0.56 | -0.93 | -0.65 | inactive |
| P2RY14 | -0.32 | -0.06 | -0.36 | -0.52 | inactive |
| TNFSF18 | 0.58 | 0.81 | 0.69 | 0.23 | inactive |
| RSPH10B | 0.79 | 0.65 | 0.94 | 0.48 | inactive |
| MAPK4 | -0.47 | -0.29 | -0.71 | -0.42 | inactive |
| ST13 | 0.18 | 0.28 | 0.12 | 0.15 | inactive |
| H2BP3 | 2 | 1.49 | 2.34 | 2.18 | active |
| LINC00339 | 1.8 | 1.31 | 2.02 | 2.07 | inactive |
| SNF8 | 0.31 | -0.18 | 0.58 | 0.53 | inactive |
| SRPX | 0.14 | 0.36 | 0.16 | -0.09 | inactive |
| PLGLB2 | 0.8 | 0.67 | 0.69 | 1.04 | inactive |
| NECAB2 | -0.69 | -0.78 | -0.61 | -0.68 | inactive |
| EPHB1 | -2.25 | -1.62 | -2.15 | -2.98 | inactive |
| GET4 | 0.26 | 0.01 | 0.52 | 0.25 | inactive |
| PDHX | -0.24 | -0.34 | -0.19 | -0.2 | inactive |
| LOC390705 | -0.35 | -0.84 | -0.23 | 0.03 | inactive |
| LETR1 | -0.7 | -0.34 | -0.96 | -0.79 | inactive |
| LOC389834 | 2.26 | 2.21 | 2.8 | 1.77 | active |
| PCDHB13 | -0.27 | -0.49 | -0.48 | 0.16 | inactive |
| DKFZp686M1136 (retired record) | -1.22 | -1.27 | -1.1 | -1.3 | inactive |
| SMOC2 | 0.12 | 1.55 | -0.86 | -0.32 | inactive |
| TRIM6-TRIM34 | 0.84 | 0.88 | 0.38 | 1.27 | inactive |
| ZNHIT3 | -0.49 | -0.48 | -0.54 | -0.46 | inactive |
| SLIRP-OT1 | 1.65 | 1.54 | 2.17 | 1.24 | inactive |
| ALMS1P1 | 0.28 | 0.09 | 0.13 | 0.62 | inactive |
| CCR9 | 0.47 | 0.41 | 0.29 | 0.71 | inactive |
| MVB12B | -0.64 | -0.61 | -0.67 | -0.64 | inactive |
| MYO1A | 0.6 | 0.75 | 0.48 | 0.56 | inactive |
| LINC01949 | -0.53 | -0.64 | -0.4 | -0.53 | inactive |
| VRK3 | 0.34 | 0.36 | 0.19 | 0.47 | inactive |
| C19orf44 | 1.29 | 1.21 | 1.49 | 1.17 | inactive |
| TRIM36 | -0.5 | -0.64 | -0.48 | -0.39 | inactive |
| L3MBTL3 | -0.42 | -0.31 | -0.73 | -0.21 | inactive |
| OR1Q1 | -0.86 | -0.92 | -0.89 | -0.77 | inactive |
| BAIAP2L1 | -0.5 | -0.33 | -0.8 | -0.36 | inactive |
| WDR3 | -1.04 | -0.87 | -0.93 | -1.31 | inactive |
| SLC51B | 1.39 | 1.29 | 1.48 | 1.39 | inactive |
| LRAT | -0.57 | -0.58 | -0.64 | -0.5 | inactive |

8 entries from above, arranged by “mean z-score”, descending.
| gene knocked down | mean z-score | z-score, replicate A | z-score, replicate B | z-score, replicate C | outcome |
| --- | --- | --- | --- | --- | --- |
| RSPH10B | 0.79 | 0.65 | 0.94 | 0.48 | inactive |
| TNFSF18 | 0.58 | 0.81 | 0.69 | 0.23 | inactive |
| LRRIQ3 | 0.36 | 0.33 | 0.13 | 0.61 | inactive |
| ST13 | 0.18 | 0.28 | 0.12 | 0.15 | inactive |
| P2RY14 | -0.32 | -0.06 | -0.36 | -0.52 | inactive |
| MAPK4 | -0.47 | -0.29 | -0.71 | -0.42 | inactive |
| CIMIP4 | -0.71 | -0.56 | -0.93 | -0.65 | inactive |
| SERPINA10 | -1.16 | -1.25 | -1.09 | -1.15 | inactive |

More results:
| gene knocked down | mean z-score | z-score, replicate A | z-score, replicate B | z-score, replicate C | outcome |
| --- | --- | --- | --- | --- | --- |
| MLKL | 0.57 | 0.68 | 0.6 | 0.42 | inactive |
| LOC164036 (retired record) | -0.4 | -0.73 | -0.57 | 0.1 | inactive |
| PAGE3 | 1.33 | 1.23 | 1.41 | 1.34 | inactive |
| SLC25A38 | 1.22 | 1.11 | 1.51 | 1.04 | inactive |
| PRAMEF3 (retired record) | -0.73 | -0.71 | -0.67 | -0.81 | inactive |
| DRC11L | -0.76 | -0.65 | -0.76 | -0.86 | inactive |
| IHO1 | 0.39 | 0.37 | 0.48 | 0.31 | inactive |
| GSPT1 | -2.27 | -2.28 | -2.15 | -2.39 | inactive |
| BOK | -0.49 | -0.27 | -0.7 | -0.51 | inactive |
| SSR2 | 0.15 | 0.35 | 0.06 | 0.04 | inactive |
| SIGLEC6 | -0.68 | -0.75 | -0.54 | -0.74 | inactive |
| YJU2B | 0.41 | 0.54 | 0.84 | -0.16 | inactive |
| LORICRIN | -0.69 | -0.78 | -0.64 | -0.64 | inactive |
| ABCA16P | 0.17 | 0.32 | 0.07 | 0.11 | inactive |
| S100A14 | 1.62 | 1.76 | 1.64 | 1.47 | inactive |
| CDK4 | 1.05 | 0.98 | 0.97 | 1.2 | inactive |
| SLX4IP | -0.27 | -0.06 | -0.58 | -0.16 | inactive |
| CCL14 | 0.79 | 0.62 | 0.84 | 0.93 | inactive |
| CCDC137 | -0.32 | -0.25 | -0.2 | -0.5 | inactive |
| CELP | -0.56 | -0.84 | -0.45 | -0.41 | inactive |
| ETFRF1 | 0.3 | 0.34 | 0.3 | 0.27 | inactive |
| ALG6 | -1.11 | -1.03 | -1.18 | -1.13 | inactive |
| ANAPC10 | 0.94 | 0.61 | 1.15 | 1.07 | inactive |
| LOC389295 (retired record) | -1.41 | -1.2 | -1.59 | -1.43 | inactive |
| HEPACAM2 | -0.08 | -0.27 | 0.39 | -0.36 | inactive |
| ZNF616 | -0.01 | -0.11 | 0.27 | -0.19 | inactive |
| NANOS1 | 0.16 | 0.11 | 0 | 0.38 | inactive |
| PXMP4 | 0.42 | 0.24 | 0.8 | 0.21 | inactive |
| C6orf89 | -0.78 | -0.72 | -0.5 | -1.12 | inactive |
